Pooled drug test results. Numbers come from NIAID ChemDB, via PubChem.

All rows: tests on isolated targets; species: HIV-1; protein: Reverse transcriptase; endpoint: inhibition

Inhibition is in % at the dose shown (toxicity tests: loss of growth or viability). a–b is a range or a potency band. An empty or dashed field is not shown. Neighbouring rows are from separate reports.

structure | dose | changes | strain | read by | value
Nc1ccc(S(=O)(=O)O)c2ccccc12 | 50 µM | - | - | RT activity | 0%
CC(C)(O)CCc1c(O[C@@H]2O[C@H](CO)[C@@H](O)[C@H](O)[C@H]2O)cc2c(c1O)C(=O)[C@H](O)[C@@H](c1ccc(O)c(O)c1)O2 | 200 µg/mL | - | - | nucleotide incorporation / radiometric | 0%
O=C(CCCCCCCCC(=O)Nc1cc(S(=O)(=O)O)cc2cc(S(=O)(=O)O)cc(O)c12)Nc1cc(S(=O)(=O)O)cc2cc(S(=O)(=O)O)cc(O)c12 | 50 µM | - | - | RT activity | 100%
Nc1ncnc2c1ncn2[C@@H]1O[C@H](COP(=O)(O)O[C@@H]2[C@H](O)[C@@H](COP(=O)(O)O[C@@H]3[C@H](O)[C@@H](CO)O[C@H]3n3cnc4c(N)ncnc43)O[C@H]2n2cnc3c(N)ncnc32)[C@@H](O)[C@H]1O | 300 µM | - | - | - | 33%
O=C(NCCc1ccccc1)Nc1nc2c(Cl)cccc2s1 | 10 µg/mL | - | - | nucleotide incorporation | 1%
Nc1ncnc2c1ncn2C1CC(F)C(COP(=O)(O)OC2C(O)C(COP(=O)(O)OC3C(O)C(CO)OC3n3cnc4c(N)ncnc43)OC2n2cnc3c(N)ncnc32)O1 | 300 µM | - | - | - | 99.7%
COC(=O)c1cc(O)c(O)c(O)c1 | 50 µM | - | - | ELISA | 46.4%
O=C1C2=C(SCCS2)C(=O)N1CC(O)CN1CCN(c2ccc(F)cc2)CC1 | 200 µg/mL | - | - | RT activity | 82.2%
CCN1c2ncc(C3(c4ccccc4)CO3)cc2C(=O)N(C)c2ccc(Cl)nc21 | 1 µM | RT-Y181C | - | nucleotide incorporation / radiometric | 76%
CCOc1cccc(/C=C(\CNCc2cn([C@H]3C[C@H](n4cc(C)c(=O)[nH]c4=O)O[C@@H]3CO)nn2)C(=O)OC)c1OCc1ccccc1 | 10 µM | - | - | - | 22.5%
C/C(=C\CC[C@@H](C)[C@H]1CC[C@@]2(C)C1=CC[C@H]1[C@@]3(C)CC[C@H](O)C(C)(C)[C@@H]3CC[C@@]12C)C(=O)O | 200 µg/mL | - | - | nucleotide incorporation / radiometric | 38.1%
COc1ccccc1N1CCN(CC(O)CN2C(=O)C3=C(SCCS3)C2=O)CC1 | 200 µg/mL | - | - | RT activity | 82.2%
CN1CC2(CCN(C(=O)c3cc4cc(NS(C)(=O)=O)ccc4[nH]3)CC2)c2ncccc21 | 100 µM | - | - | - | 38%
O=C(NCCc1ccccc1)Nc1ccn[nH]1 | 0.1 µg/mL | - | - | nucleotide incorporation | 1%
CC(=O)O[C@H]1C[C@](C)(O)/C=C/C[C@@H](C)/C=C/[C@@]2(C)CC[C@@H](C(C)(C)OC(C)=O)[C@H]12 | 40 µM | - | - | nucleotide incorporation / radiometric | 25%
Cc1ccc2c(c1)N(CC1CC1)C(=O)c1ccnnc1O2 | 33 µM | - | - | ELISA | 19%
COc1cc(O)c2c(=O)cc(-c3ccc(Oc4cc(-c5cc(=O)c6c(O)cc(O)cc6o5)ccc4O)cc3)oc2c1 | 200 µg/mL | - | - | nucleotide incorporation / radiometric | 90.1%
C=CCN1C(=O)c2ccnnc2Oc2c(C)cc(C)cc21 | 33 µM | - | - | ELISA | 45%
Nc1ncnc2c1ncn2[C@@H]1O[C@H](COP(=O)([O-])O[C@@H]2C[C@@H](COP(=O)([O-])O[C@@H]3C[C@@H](COP(=O)([O-])O)O[C@H]3n3cnc4c(N)ncnc43)O[C@H]2n2cnc3c(N)ncnc32)C[C@H]1O | 10 µM | - | IIIB | - | 21%
NOCc1c(F)cccc1Cl | 20 µg/mL | - | - | nucleotide incorporation | 0%
Nc1ncnc2c1ncn2[C@@H]1O[C@H](COP(=O)([O-])O)[C@@H](O)[C@H]1OP(=O)([O-])OC[C@H]1O[C@@H](n2cnc3c(N)ncnc32)[C@H](OP(=O)([O-])OC[C@@H]2C[C@@H](O)[C@H](n3cnc4c(N)ncnc43)O2)[C@@H]1O | 10 µM | - | IIIB | - | 25%
CCN1c2ncc(CCc3ccc(N(C)S(C)(=O)=O)cc3)cc2C(=O)N(C)c2ccc(Cl)nc21 | 1 µM | RT-Y181C | - | nucleotide incorporation / radiometric | 56%
O=c1[nH]c(SCc2cn[nH]n2)nc(-c2ccc(Cl)cc2)c1Cl | 100 µg/mL | - | - | RT activity / absorbance | 85.26%
COC(=O)C(CNCc1cn([C@H]2C[C@H](n3cc(C)c(=O)[nH]c3=O)O[C@@H]2CO)nn1)C(O)c1ccccc1OCc1ccccc1 | 10 µM | - | - | - | 19.4%
CCN1c2ncc(CCc3ccncc3)cc2C(=O)N(C)c2ccc(C#N)nc21 | 1 µM | - | WT | nucleotide incorporation / radiometric | 82%
O=C1Nc2ccccc2Oc2nnccc21 | 330 µM | - | - | ELISA | 29%
O=C1NC(c2c[nH]c3ccc(O)cc23)=C/C1=C1\C(=O)NC2C=CC=CC12 | 1000 µM | - | - | RT activity / ELISA | 97.14%
COc1cc(O)c2c(=O)cc(-c3cc(OC)c(OC)c(OC)c3O)oc2c1 | 200 µg/mL | - | - | RT activity | 82.2%
CCCCCCCCCCCCCCCC(=O)Oc1cc(S(=O)(=O)O)c2ccccc2c1N | 50 µM | - | - | RT activity | 93.5%
O=C(NCCc1ccccc1)NCc1ccoc1 | 10 µg/mL | - | - | nucleotide incorporation | 10%
CCN1c2ncccc2C(=O)Nc2c(COc3ccccc3)cc(=O)[nH]c21 | 20 µM | RT-Y181C | - | - | 1%
C/C(=C\CC[C@@H](C)[C@H]1CC[C@@]2(C)C1=CC[C@H]1[C@@]3(C)CCC(=O)C(C)(C)[C@@H]3CC[C@@]12C)C(=O)O | 200 µg/mL | - | - | nucleotide incorporation / radiometric | 96.3%
COc1ccc2c(c1)N(CCCCl)C(=O)c1ccnnc1O2 | 330 µM | - | - | ELISA | 32%
CC(C)(O)CCc1c(O[C@@H]2O[C@H](CO)[C@@H](O)[C@H](O)[C@H]2O)cc2oc(-c3ccc(O)c(O)c3)c(O)c(=O)c2c1O | 200 µg/mL | - | - | nucleotide incorporation / radiometric | 18.5%
Nc1ccn([C@@H]2O[C@H](COP(=O)(O)O[C@@H]3[C@H](O)[C@@H](COP(=O)(O)O[C@@H]4[C@H](O)[C@@H](CO)O[C@H]4n4ccc(N)nc4=O)O[C@H]3n3ccc(N)nc3=O)[C@@H](O)[C@H]2O)c(=O)n1 | 400 µM | - | - | nucleotide incorporation / radiometric | 40%
CCOc1ccccc1CCNC(=S)Nc1nccs1 | 1 µg/mL | - | - | nucleotide incorporation | 30%
O=c1[nH]c(SCc2cn[nH]n2)nc(-c2cccc([N+](=O)[O-])c2)c1Cl | 100 µg/mL | - | - | RT activity / absorbance | 65.72%
CCN1c2ncccc2C(=O)Nc2c(CO)cc(=O)[nH]c21 | 51 µM | - | WT | - | 1%
Cc1cc(C)c(S(=O)(=O)Oc2ccc3cccc(S(=O)(=O)O)c3c2)c(C)c1S(=O)(=O)Oc1ccc2cccc(S(=O)(=O)O)c2c1 | 50 µM | - | - | RT activity | 87%
CC1=C2CC[C@@H](C)[C@]3(C[C@@H](c4ccoc4)OC3=O)[C@H]2CCC1=O | 100 µM | - | - | RT activity / luminescence | 20%
COC(=O)/C(=C/c1ccccc1OCc1ccccc1)CNCc1cn([C@H]2C[C@H](n3cc(C)c(=O)[nH]c3=O)O[C@@H]2CO)nn1 | 10 µM | - | - | - | -18.4%
Nc1ncnc2c1ncn2C1OC(COP(=O)(O)OC2C(O)C(COP(=O)(O)OC3C(O)C(CO)OC3n3cnc4c(N)ncnc43)OC2n2cnc3c(N)ncnc32)CC1O | 10 µM | - | IIIB | - | 16%
CCN1c2ncccc2C(=O)Nc2c(COCc3ccccc3)cc(OC)nc21 | 42 µM | - | WT | - | 1%
O=C(Nc1ccc(S(=O)(=O)O)c2cccc(S(=O)(=O)O)c12)c1ccc(C(=O)Nc2ccc(S(=O)(=O)O)c3cccc(S(=O)(=O)O)c23)cc1 | 50 µM | - | - | RT activity | 8%
CCN1c2ncccc2-c2cscc2-c2cccnc21 | 1 µM | - | - | nucleotide incorporation | 96%
CCOC(=O)CN1C(=O)c2ccnnc2Oc2ccc(OC)cc21 | 330 µM | - | - | ELISA | 29%
O=C(Oc1cc(S(=O)(=O)O)cc2cc(S(=O)(=O)O)ccc12)c1ccc(-c2ccc(C(=O)Oc3cc(S(=O)(=O)O)cc4cc(S(=O)(=O)O)ccc34)cc2)cc1 | 50 µM | - | - | RT activity | 100%
O=C1C2=C(SCCS2)C(=O)N1CCCCN1CCN(c2ccccn2)CC1 | 200 µg/mL | - | - | RT activity | 82.2%
N#Cc1csc(NC(=O)NCCc2ccccc2)n1 | 10 µg/mL | - | - | nucleotide incorporation | 94–95%
O=C(O)CCc1ccnc2c1NC(=O)c1cccnc1N2C1CC1 | 2 µM | - | WT | - | 1%
CCN1C(=O)c2cc(Cl)nnc2Oc2ccc(C)cc21 | 330 µM | - | - | ELISA | 25%
Nc1ncnc2c1ncn2[C@@H]1O[C@H](COP(=O)([O-])O)[C@@H](O)[C@H]1OP(=O)([O-])OC[C@@H]1C[C@@H](OP(=O)([O-])OC[C@@H]2C[C@@H](O)[C@H](n3cnc4c(N)ncnc43)O2)[C@H](n2cnc3c(N)ncnc32)O1 | 10 µM | - | IIIB | - | 20%
CCN1c2nc(Cl)ccc2NC(=O)c2cc(CCc3cccc(NS(C)(=O)=O)c3)cnc21 | 1 µM | - | WT | nucleotide incorporation / radiometric | 59%
Nc1ncnc2c1ncn2[C@@H]1O[C@H](COP(=O)([O-])O[C@@H]2C[C@@H](COP(=O)([O-])O)O[C@H]2n2cnc3c(N)ncnc32)[C@@H](O)[C@H]1OP(=O)([O-])OC[C@@H]1C[C@@H](O)[C@H](n2cnc3c(N)ncnc32)O1 | 10 µM | - | IIIB | - | 21%
CCCCCCCCCCCCCCCC(=O)Nc1c(O)cc(S(=O)(=O)O)c2ccccc12 | 50 µM | - | - | RT activity | 99.98%
Nc1ncnc2c1ncn2C1OC(CO)CC1OP(=O)(O)OCC1CC(OP(=O)(O)OCC2OC(n3cnc4c(N)ncnc43)C(O)C2O)C(n2cnc3c(N)ncnc32)O1 | 10 µM | - | IIIB | - | 8%
CCCCOC(=O)C(CNCc1cn([C@H]2C[C@H](n3cc(C)c(=O)[nH]c3=O)O[C@@H]2CO)nn1)C(O)c1cc(Cl)ccc1O | 10 µM | - | - | - | -9.4%
CCN1c2ncccc2-c2cscc2-c2ccc(Cl)nc21 | 1 µM | - | - | nucleotide incorporation | 91%
CC1=C(CC/C(C)=C/CC/C(C)=C/CCC2=CCOC2=O)C(C)(C)CCC1=O | 1000 µg/mL | - | - | - | 81%

Again, the opening 6 rows:

structure,dose,changes,strain,read by,value
Nc1ccc(S(=O)(=O)O)c2ccccc12,50 µM,-,-,RT activity,0%
CC(C)(O)CCc1c(O[C@@H]2O[C@H](CO)[C@@H](O)[C@H](O)[C@H]2O)cc2c(c1O)C(=O)[C@H](O)[C@@H](c1ccc(O)c(O)c1)O2,200 µg/mL,-,-,nucleotide incorporation / radiometric,0%
O=C(CCCCCCCCC(=O)Nc1cc(S(=O)(=O)O)cc2cc(S(=O)(=O)O)cc(O)c12)Nc1cc(S(=O)(=O)O)cc2cc(S(=O)(=O)O)cc(O)c12,50 µM,-,-,RT activity,100%
Nc1ncnc2c1ncn2[C@@H]1O[C@H](COP(=O)(O)O[C@@H]2[C@H](O)[C@@H](COP(=O)(O)O[C@@H]3[C@H](O)[C@@H](CO)O[C@H]3n3cnc4c(N)ncnc43)O[C@H]2n2cnc3c(N)ncnc32)[C@@H](O)[C@H]1O,300 µM,-,-,-,33%
O=C(NCCc1ccccc1)Nc1nc2c(Cl)cccc2s1,10 µg/mL,-,-,nucleotide incorporation,1%
Nc1ncnc2c1ncn2C1CC(F)C(COP(=O)(O)OC2C(O)C(COP(=O)(O)OC3C(O)C(CO)OC3n3cnc4c(N)ncnc43)OC2n2cnc3c(N)ncnc32)O1,300 µM,-,-,-,99.7%